Results of unrelated studies side by side (data: NIAID ChemDB).

Shared fields: tests in culture; species: Mycobacterium tuberculosis

Percent inhibition refers to the dose given; in toxicity tests it is the harm to the cells. a–b is a range or a potency band. An empty or dashed field is not shown. Lines come from different laboratories, so protocols vary. MIC bound comes from a single tested concentration. MIC50, MIC90 and the like: level of inhibition, or share of isolates inhibited.

structure,dose,strain,cells,read-out,method,mutations,result
Cc1cn2c(C(=O)NCc3ccc(N4CCC(c5ccc(OC(F)(F)F)cc5)CC4)cc3)c(C)nc2s1,,H37Rv,,MIC,resazurin / fluorescence,QcrB6 A317T,0.1 µM
O=C(N/N=C/c1cccc(F)c1)c1ccncc1,,Erdman,,MIC,,,0.4 µg/mL
NNC(=O)c1ccncc1,,Isolate S1,,MIC,,,0.031 µg/mL
CC[C@@H](CO)NC[C@@H]1O[C@H](CO)[C@@H](O)[C@@H]1O,,H37Ra,,MIC,,,>128 µg/mL
O=C(N/N=C/c1cccc(C(F)(F)F)c1)c1ccncc1,,H37Rv (kanamycin-resistant),,MIC,,,1 µg/mL
COc1cc(C(O)(CCN(C)C)C(c2cc(-c3ccccc3C)cnc2OC)c2cccc(OC)c2F)cc(OC)n1,,H37Rv,,MIC90,resazurin,,10 µM
Nn1c(=O)[nH]c2ncn(Cc3ccccc3)c2c1=O,,H37Rv,,MIC bound,resazurin,,>6.25 µg/mL
Cc1ccc2c(c1)n([O-])c(C)c(S(=O)(=O)c1ccccc1)[n+]2=O,6.25 µg/mL,H37Rv,,inhibition,,,99%
Cc1ccc(-n2c(=S)oc3ccc(Cl)cc3c2=S)cc1,,My 331/88,,MIC,,,0.5 µM
Oc1ccc(-c2cn3nc(C(F)(F)F)sc3n2)cc1,,H37Rv,,MIC,,,50 µg/mL
CC(NNC(=O)c1ccncc1)c1ccc(Cl)c(Cl)c1,,H37Rv (rifampin-resistant),,MIC,,,1.96 µg/mL
Cc1cn2c(C(=O)NCc3ccc(C(F)(F)F)cc3)c(C)nc2s1,,H37Rv,,MIC,resazurin / fluorescence,QcrB5 M342I,0.3 µM
Cc1ccc(-c2n[nH]c(=O)n2-n2c(C)ccc2C)cc1,,H37Rv,,MIC,,,1.9 µg/mL
S=c1oc2ccc(Cl)cc2c(=S)n1-c1ccccc1,,My 331/88,,MIC,,,1 µM
Cc1cn2c(C(=O)NCc3ccc(N(C)C)cc3)c(C)nc2s1,,H37Rv,,MIC,luminescence,,21.5 µM
CC[C@H]1OC(=O)[C@H](C)[C@@H](O[C@H]2C[C@@](C)(OC)[C@@H](O)[C@H](C)O2)[C@H](C)[C@@H](O[C@@H]2O[C@H](C)C[C@H](N(C)C)[C@H]2O)[C@](C)(OC)C[C@@H](C)C(=O)[C@H](C)[C@@H](O)[C@]1(C)O,,90-0216 (drug-susceptible),,MIC,,,2 µg/mL
CCCCC(CC)COc1ccc(Cc2cnc(N)nc2N)cc1OC,,H37Rv,,MIC,,,22.3 µM
COc1ccc(N2CCN(c3c(N)cnc4ccccc34)CC2)c(OC)c1,,H37Rv,,MIC bound,resazurin,,>6.25 µg/mL
O=[n+]1c(Sc2ccccc2)c(CBr)n([O-])c2cc(Cl)ccc21,,H37Rv,,MIC,,,6.25 µg/mL
COc1cc([C@](O)(CCN(C)C)[C@@H](c2cc(-c3cccnc3)cnc2OC)c2cccc(OC)c2F)cc(OC)n1,,H37Rv,,MIC90,resazurin,,17.11 µM
Cc1cc(=O)[nH]c(NNC(=O)c2ccc(Cl)cc2)n1,12.5 µg/mL,H37Rv,,inhibition,BACTEC,,-15%
O=c1oc2ccc(Cl)cc2c(=S)n1-c1ccc(Br)cc1,,My 331/88,,MIC,,,1 µM
O=[n+]1c(Sc2ccccc2)c(CBr)n([O-])c2cc(F)c(F)cc21,6.25 µg/mL,H37Rv,,inhibition,,,48%
O=c1oc2ccc(Cl)cc2c(=O)n1-c1ccc(Cl)cc1,,My 331/88,,MIC,,,4 µM
Cn1cc(NC(=O)Nc2cc(C(=O)Nc3cc(C(=O)Nc4ccc(S(=O)(=O)O)c5cc(S(=O)(=O)O)ccc45)n(C)c3)n(C)c2)cc1C(=O)Nc1cc(C(=O)Nc2ccc(S(=O)(=O)O)c3cc(S(=O)(=O)O)ccc23)n(C)c1,,H37Rv,,MIC bound,BACTEC,,>12.5 µg/mL
C[C@H]1c2ccoc2C[C@H]2[C@H]1[C@@H](O)[C@@H](OC(=O)/C=C/c1ccccc1)[C@@]1(O)C(C)(C)CCC[C@]21C,,H37Ra,,MIC,,,6.25 µg/mL
COc1cc(Cc2cnc(N)nc2N)ccc1OCCC(C)C,,H37Rv,,MIC,,,101 µM
O=C1N[C@@H]2C(=C[C@H](O)[C@@H](O)[C@H]2O)c2cc3c(c(O)c21)OCO3,,H37Rv,,MIC bound,BACTEC,,>12.5 µg/mL
CC(NNC(=O)c1ccncc1)c1cccc(C(F)(F)F)c1,,Ethambutol-resistant,,MIC,,,≤0.78 µg/mL
Cc1c(S(=O)(=O)c2ccccc2)[n+](=O)c2cc(Cl)ccc2n1[O-],,H37Rv,,MIC,,,6.25 µg/mL
CC(=O)OC[C@]12[C@H](OC(C)=O)C(=O)[C@@H]3[C@@H](OC(C)=O)[C@@]14O[C@@]3(C)COC(=O)c1cccnc1[C@@H](C)[C@@H](C)C(=O)O[C@@H]([C@H](OC(C)=O)[C@@H]2OC(C)=O)[C@]4(C)O,12.5 µg/mL,H37Rv,,inhibition,BACTEC,,13%
Cc1ccc(-n2c(=O)oc3ccc(Cl)cc3c2=O)cc1,,My 331/88,,MIC,,,16 µM
Cc1cn2c(C(=O)NCc3ccc(N4CCN(c5ccc(C(F)(F)F)cn5)CC4)c(F)c3)c(C)nc2s1,,H37Rv,,MIC,resazurin / fluorescence,QcrB4 A396T,<0.024 µM
COc1c2c(cc3c1C1Oc4c(ccc(O)c4CC=C(C)C)C1CO3)OC(C)(C)C=C2,,RMP-R,,MIC,,,12.5 µg/mL
COc1cc(C(O)(CCN(C)C)C(c2cc(-c3ccccc3Cl)cnc2OC)c2cccc(OC)c2F)cc(OC)n1,,H37Rv,,MIC90,resazurin,,9.8 µM
FC(F)(F)c1nn2cc(-c3ccco3)nc2s1,,H37Rv,,MIC,,,20 µg/mL
NC[C@H]1O[C@H](O[C@H]2[C@H](O)[C@@H](O[C@H]3O[C@H](CO)[C@@H](O)[C@H](N)[C@H]3O)[C@H](N)C[C@@H]2N)[C@H](O)[C@@H](O)[C@@H]1O,,H37Ra,,MIC,,,2–5 µg/mL
COc1cc([C@@](O)(CCN(C)C)[C@@H](c2cc(-c3ccc(F)cc3)cnc2OC)c2cccc(OC)c2F)cc(OC)n1,,H37Rv,,MIC90,resazurin,,13.67 µM
COC(=O)CCc1nc(C(=O)OC)c(CCC(=O)OC)nc1C(=O)OC,,H37Rv,,MIC bound,BACTEC,,>12.5 µg/mL
COc1cc(Cc2cnc(N)nc2N)ccc1OCc1ccccc1,,H37Rv,,MIC,,,>95 µM
O=Nc1c2c3ccccc3[nH]c(N3CCC(O)CC3)c-2c2ccccc12,,H37Rv,,MIC90,resazurin / fluorescence,,>20 µg/mL
CCCCCCOc1ccc(Cc2cnc(N)nc2N)cc1OC,,H37Rv,,MIC,,,24.2 µM
O=c1oc2ccc(Cl)cc2c(=O)n1-c1ccccc1,,My 331/88,,MIC,,,31 µM
C[C@@H]1CN(c2c(F)c(N)c3c(=O)c(C(=O)O)cn(C4CC4)c3c2F)C[C@H](C)N1,,H37Rv,,MIC,,,0.2 µg/mL
COc1ccc(-c2coc3c4c(c(CC=C(C)C)c(OC)c3c2=O)OC(C)(C)C=C4)cc1OC,,H37Rv,,MIC bound,BACTEC,,>12.5 µg/mL
CC(C)N=c1cc2n(-c3ccc(Cl)cc3)c3ccccc3nc-2cc1Nc1ccc(Cl)cc1,,92-0492 MDR (INH RIF-resistant),,MIC,,,0.4 µg/mL
COc1cc([C@](O)(CCN(C)C)[C@@H](c2cc(-c3ccccc3)cnc2OC)c2cccc(OC)c2F)cc(OC)n1,,H37Rv,,MIC90,resazurin,,2.54 µM
COC(=O)C(=O)c1c(-c2ccc(O)c(OC)c2)[nH]c2[nH]n(-c3ccccc3)c(=O)c2c1=O,,H37Rv,,MIC bound,BACTEC,,>12.5 µg/mL
CCCCCCCCCCCCS(=O)(=O)C[C@@H]1N[C@H](CO)[C@@H](O)[C@@H]1O,,H37Ra,,MIC,,,32–128 µg/mL
CSC(=S)N/N=C(/C)Cc1ccccn1,,ETA-R,,MIC,,,0.8 µg/mL
C[C@H]1Oc2nc([N+](=O)[O-])cn2C[C@@H]1OCc1ccc(OC(F)(F)F)cc1,,H37Rv-T3,,MIC,absorbance,,>100 µM
S=c1oc2ccc(Cl)cc2c(=S)n1-c1cccc(Cl)c1,,My 331/88,,MIC,,,2 µM
NC(=O)C(=O)NNC(=O)CCn1[nH]c(=O)c(Cl)c(Cl)c1=O,12.5 µg/mL,H37Rv,,inhibition,BACTEC,,-1%
COc1cc([C@@](O)(CCN(C)C)[C@@H](c2cc(-c3ccc(Cl)cc3)cnc2OC)c2cccc(OC)c2F)cc(OC)n1,,H37Rv,,MIC90,resazurin,,10.47 µM
CC(CCC(=O)NN)[C@H]1CC[C@H]2[C@@H]3[C@H](O)C[C@@H]4C[C@H](O)CC[C@]4(C)[C@H]3C[C@H](O)[C@]12C,12.5 µg/mL,H37Rv,,inhibition,BACTEC,,0%
CCCCCCCCCOc1ccc(Cc2cnc(N)nc2N)cc1OC,,H37Rv,,MIC,,,10.7 µM
Cc1cn2c(C(=O)NCc3ccc(N4CCOCC4)c(F)c3)c(C)nc2s1,,H37Rv,,MIC,resazurin / fluorescence,QcrB4 A396T,0.15 µM
CCOc1cc2c(cc1F)[n+](=O)c(Sc1ccccc1)c(C)n2[O-],,H37Rv,,MIC,,,>6.25 µg/mL
CCc1cc(C(N)=S)ccn1,,90-0201 (drug-susceptible),,MIC,,,0.25 µg/mL
S=C(S)NCCCNC(=S)S,,H37Rv,VERO,MIC,,,6.25 µg/mL
Cc1ccc(-c2nc3sc(S(=O)(=O)/N=C/N(C)C)nn3c2/C=N/N=C(N)N)cc1,,H37Rv,,MIC,,,>6.25 µg/mL
O=c1oc2ccc(Cl)cc2c(=O)n1-c1ccc(Br)cc1,,My 331/88,,MIC,,,4 µM
CO[C@H]1/C=C/O[C@@]2(C)Oc3c(C)c(O)c4c(O)c(c(/C=N/N5CCN(C)CC5)c(O)c4c3C2=O)NC(=O)/C(C)=C\C=C\[C@H](C)[C@H](O)[C@@H](C)[C@@H](O)[C@@H](C)[C@H](OC(C)=O)[C@@H]1C,,9S,,MIC,,,1 µg/mL
COc1c(O)cc2oc3cc(O)c(CC=C(C)C)c(O)c3c(=O)c2c1CC=C(C)C,128 µg/mL,H37Rv,,inhibition,BACTEC,,100%
CCCCOc1ccc(Cc2cnc(N)nc2N)cc1OC,,H37Rv,,MIC,,,>106 µM
Nc1nc(N)c2nn(-c3ccc(C(=O)O)cc3)nc2n1,,H37Rv,,MIC bound,BACTEC,,>6.25 µg/mL
COc1cc(Cc2cnc(N)nc2N)ccc1OCC1CCCCC1,,H37Rv,,MIC,,,>93.5 µM
CCCCCCCCC/C=N/Nc1ccc([N+](=O)[O-])cn1,,H37Rv,VERO,MIC,,,0.8 µg/mL
COc1cc([C@](O)(CCN(C)C)[C@@H](c2cc(-c3ccc(OC(F)(F)F)cc3)cnc2OC)c2cccc(OC)c2F)cc(OC)n1,,H37Rv,,MIC90,resazurin,,1.09 µM
Cc1ccc(-c2nc3sc(S(N)(=O)=O)nn3c2SC#N)cc1,6.25 µg/mL,H37Rv,,inhibition,,,29%
O=[n+]1c(Sc2ccccc2)c(CBr)n([O-])c2cc(C(F)(F)F)ccc21,6.25 µg/mL,H37Rv,,inhibition,,,88%
Nc1ccc2nc3ccc(O)cc3nc2c1.S.[Na+].[Na+].[SH-],,H37Rv,,MIC bound,BACTEC,,>12.5 µg/mL
CC(C)=CC/C(C)=C/CN1[C@H](CO)[C@@H](O)[C@H](O)[C@@H]1CO,,H37Ra,,MIC,,,64 µg/mL
O=[n+]1c(Sc2ccccc2)c(CBr)n([O-])c2ccccc21,,H37Rv,,MIC,,,>6.25 µg/mL
CC(NNC(=O)c1ccncc1)c1ccc(F)cc1,,Rifampicin-resistant,,MIC,,,3.13 µg/mL
CCC(CO)NC[C@@H]1N[C@H](CO)[C@@H](O)[C@@H]1O,,H37Ra,,MIC,,,>128 µg/mL
CCOc1ccc(Cc2cnc(N)nc2N)cc1OC,,H37Rv,,MIC,,,>117 µM
NCC[C@H](O)C(=O)N[C@@H]1C[C@H](N)[C@@H](O[C@H]2O[C@H](CN)[C@@H](O)[C@H](O)[C@H]2O)[C@H](O)[C@H]1O[C@H]1O[C@H](CO)[C@@H](O)[C@H](N)[C@H]1O,,90-0233 (INH SM-RS),,MIC,,,0.5 µg/mL
NCC[C@H](O)C(=O)N[C@@H]1C[C@H](N)[C@@H](O[C@H]2O[C@H](CN)[C@@H](O)[C@H](O)[C@H]2O)[C@H](O)[C@H]1O[C@H]1O[C@H](CO)[C@@H](O)[C@H](N)[C@H]1O,,2S,,MIC,,,2.5 µg/mL
Cc1c(Cl)[n+](=O)c2cc(F)c(F)cc2n1[O-],,H37Rv,,MIC,,,1.56 µg/mL
O=C(O)c1nc(Cl)c(Cl)[nH]c1=O,,H37Rv,,MIC bound,BACTEC,,>12.5 µg/mL
S=c1oc2ccc(Cl)cc2c(=S)n1-c1ccc(Cl)c(Cl)c1,,My 331/88,,MIC,,,2 µM
C=CC12c3c4cc(OC)cc3OC1C(O)CCC2CC4,12.5 µg/mL,H37Rv,,inhibition,BACTEC,,7%
CCCCCCCCCCCCCCCCSC[C@@H]1N[C@H](CO)[C@@H](O)[C@@H]1O,,H37Ra,,MIC,,,16–64 µg/mL

Again, the opening 7 rows:

Cc1cn2c(C(=O)NCc3ccc(N4CCC(c5ccc(OC(F)(F)F)cc5)CC4)cc3)c(C)nc2s1 ; strain: H37Rv ; read-out: MIC ; method: resazurin / fluorescence ; mutations: QcrB6 A317T ; result: 0.1 µM
O=C(N/N=C/c1cccc(F)c1)c1ccncc1 ; strain: Erdman ; read-out: MIC ; result: 0.4 µg/mL
NNC(=O)c1ccncc1 ; strain: Isolate S1 ; read-out: MIC ; result: 0.031 µg/mL
CC[C@@H](CO)NC[C@@H]1O[C@H](CO)[C@@H](O)[C@@H]1O ; strain: H37Ra ; read-out: MIC ; result: >128 µg/mL
O=C(N/N=C/c1cccc(C(F)(F)F)c1)c1ccncc1 ; strain: H37Rv (kanamycin-resistant) ; read-out: MIC ; result: 1 µg/mL
COc1cc(C(O)(CCN(C)C)C(c2cc(-c3ccccc3C)cnc2OC)c2cccc(OC)c2F)cc(OC)n1 ; strain: H37Rv ; read-out: MIC90 ; method: resazurin ; result: 10 µM
Nn1c(=O)[nH]c2ncn(Cc3ccccc3)c2c1=O ; strain: H37Rv ; read-out: MIC bound ; method: resazurin ; result: >6.25 µg/mL